# Screening data, single-dose tests

The values are deposited in ChEMBL (CHEMBL3988442, “University of Dundee, Small-Polar-MMV Screening Library” (2021)).

Values are the deposited “Percent Effect”, in %.
How 0% and 100% were set is not recorded. Most values in the screen are low, and negative values occur.
The entries come from a sample that favours strong results.

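Whole-cell growth test on Mycobacterium tuberculosis, read after 3 days in glucose-containing 7H9 medium; the read-out is not stated. Concentration: 500 µM. The record gives no direction; compounds that gave an IC50 in retests scored well above the rest, so higher reads as more growth inhibition. Size under these conditions: about 18,000 compounds, about 1,400 of them at 50% or above in at least one test.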

structure | effect
CCNC(=O)CNc1nccc(OC)n1 | 0.8061%
O=C(c1ccoc1)N1CCC(NC2CCSCC2)CC1 | -11.14%
CNC(=O)CSc1nnnn1-c1ccc(C(C)C)cc1 | 74.54%
CN1CCC(CNC(=O)COc2cccnc2)C1 (configuration not stated) | 3.69%
Cc1cccc(OCCNC(=O)CCn2cncn2)c1 | 18.97%
CCC(NC(=O)c1ccc(C)c(O)c1)[C@H]1C[C@H](O)C1 (some centres not stated) | 7.626%
Cc1cccc(NC(=O)N(C)CCS(C)(=O)=O)c1Cl | 9.695%
CCOC(=O)Cc1csc(NC(=O)c2ccccn2)n1 | 1.124%
COc1ccc2c(c1)OCC(CNC(=O)C(C)(C)N)C2 (configuration not stated) | 35.5%
CC(=O)c1cccc(OCC(=O)NC2CCCC2)c1 | 76.77%
CN(C)C(=O)c1ccc2c(c1)CCCN2 | 15.31%
COc1cc(CNC(=O)C(C)OCC(C)C)ccn1 (configuration not stated) | 52.14%
COC(=O)c1coc(CN2CCC(O)(CO)CC2)n1 | -0.1448%
CC(N)CCS(C)(=O)=O (configuration not stated) | 6.547%
Cc1cnn(-c2ccc(C(C)N)cc2F)c1 (configuration not stated) | -1.548%
O=C(CN1CCNCC1)NCCSc1ccc(Cl)cc1 | 71.6%
COc1cccc(N2CCCC(N)C2)c1 (configuration not stated) | 39.11%
CC(N)(CO)c1cccc(O)c1 (configuration not stated) | 4.775%
O=C(CNC(=O)c1cccnc1O)NC1CC1 | 27.46%
Cc1ccc(NS(=O)(=O)N(C)C)c(C)c1 | 46.8%
CC[C@H](C)[C@H](N)C(=O)NCCCc1ccccn1 | 2.837%
OCCOc1ccc(CNC2CC2)cc1 | 11.19%
CC(C)(N)CN1CCN(c2cccc(Cl)c2)CC1 | 87.79%
O=C(c1cccc(-n2cccn2)n1)N1CCCC1 | 61.63%
Cc1ccc(C(=O)N2CCC(N3CCN(C)CC3)C2)s1 (configuration not stated) | 6.744%
Cn1cc(C(=O)NC2CCS(=O)(=O)C2)c2ccccc21 (configuration not stated) | 9.211%
Cc1ccoc1C(=O)N1CCC2(CCC2O)CC1 (configuration not stated) | 14.52%
O=C(CNc1cccc2c1CCCC2)N1CCNC1=O | -15.68%
CCCC1=NNC(=O)C1 | 14.42%

Some entries from above, unchanged:

{"structure": "Cc1cccc(NC(=O)N(C)CCS(C)(=O)=O)c1Cl", "effect": 9.695}
{"structure": "CC(=O)c1cccc(OCC(=O)NC2CCCC2)c1", "effect": 76.77}
{"structure": "Cc1ccoc1C(=O)N1CCC2(CCC2O)CC1", "stereo": "configuration not stated", "effect": 14.52}